# Data taken from ChEMBL document CHEMBL1141032, “Design and synthesis of peptidomimetic severe acute respiratory syndrome chymotrypsin-like protease inhibitors” (J Med Chem, 2005).
# Target: Replicase polyprotein 1a (Severe acute respiratory syndrome-related coronavirus, UniProt P0C6U8)
# Test: Inhibitory concentration required for antiviral activity against SARS-CoV 3CLpro protease
smiles,measurement,value
CCOC(=O)/C=C/[C@H](C[C@@H]1CCNC1=O)NC(=O)[C@H](CC=C(C)C)CC(=O)[C@@H](NC(=O)c1cc(C)on1)C(C)C,IC50,70 µM
